Test system: retrothelial sarcoma cells
Assay: Cytotoxic activity in vitro, retrothelial sarcoma

Q: With NP(=O)(O)N(CCCl)CCCl as the molecule, how does the cytotoxicity read?
A: cytotoxicity
